Reference: paper PMC11323498

Target: MoCrn1 (protein of the pull-down and MST assays) (Magnaporthe oryzae)
Assay: MST
Conditions: natural protein

With MoRgs3 (protein of the MST assay) the Kd was 7.9 µM.
